The values that follow come from paper PMC6265350.

The exact form of at least one protein or probe is not confirmed. At least one verdict was read from the data and is not stated in words by the source. Where a protein sequence is shown, tags need not be part of it.

The target in the data set is T1, MtrA Y102C~P (UniProt P9WGM7).
T1 sequence (looked up, limits assumed): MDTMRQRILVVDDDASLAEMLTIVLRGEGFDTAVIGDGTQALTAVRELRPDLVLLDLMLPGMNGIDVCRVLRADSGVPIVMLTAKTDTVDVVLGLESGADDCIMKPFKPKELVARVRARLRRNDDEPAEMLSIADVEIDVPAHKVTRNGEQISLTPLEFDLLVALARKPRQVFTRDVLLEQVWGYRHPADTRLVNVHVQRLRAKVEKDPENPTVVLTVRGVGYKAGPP
In words: EMSA. The note with it: 50 mM Tris-HCl pH 7.5, 50 mM NaCl, 10 mM MgCl2, 10 mM CaCl2, […]; recombinant protein; protein details: MBP fusion; label: FAM; probe letters rebuilt from the primers and the genome; part of a longer molecule. (A gel shift assay detects complexes by their altered migration in electrophoresis.)

As to “CTTCAAGCTCCGTTTCTCACCGCGTCCTCATCACGGCCACCGCAACGCCAAATCACCATCAACCAGACAAGCACAGACCTGTGCACCATGCTGAGTAACTACCGTCTCGGACAGCAAATGGCCAGGTGGAGCCGCGTTTGCCTGATCCAGGCTCACGCGTGGCGAGCGTAACGCCACTGCGAA (double strand) [PbetP]”, the binding result is given as “binds”.
